A mixed list of measured activities; the numbers were collected in NIAID ChemDB.

All rows: tests in culture; agent: Mycobacterium kansasii; read-out: MIC

Neighbouring rows are from separate reports. Two numbers with a dash give a range or band.

smiles,strain or isolate,setting,result
NC(=O)c1cnccn1,6509/96,7 d,250–1000 µM
CC(C)[C@H](NC(=O)OCc1ccccc1)c1cnc(-c2ccc([N+](=O)[O-])cc2)[nH]1,My 6509/96,14 d,32 µM
Fc1cccc(-n2c(=S)oc3ccc(Cl)cc3c2=S)c1,My 235/80,14 d,8 µM
O=C(Oc1ccc(Br)cc1C(=O)Nc1ccc(C(F)(F)F)cc1)c1cnccn1,6509/96,14 d,1 µM
Cc1ccc2oc(=O)n(-c3ccccc3)c(=S)c2c1,My 235/80,21 d,4 µM
C[C@@H](NC(=O)OCc1ccccc1)c1cnc(-c2ccccc2)[nH]1,My 235/80,21 d,250 µM
O=C(Nc1ccc(Cl)c(Cl)c1)c1ccc(Cl)cc1OS(=O)(=O)c1ccccc1,235/80,14 d,8 µM
O=C(N[C@@H](Cc1ccccc1)c1cnc(-c2ccccc2)[nH]1)OCc1ccccc1,My 235/80,14 d,>500 µM
Cc1ccc(-n2c(=O)oc3ccc(Br)cc3c2=S)cc1,6509/96,14 d,2 µM
O=C(Nc1ccc(Cl)c(Cl)c1)c1cc(Cl)ccc1OS(=O)(=O)c1ccccc1,6509/96,7 d,8 µM
CC(C)[C@H](NC(=O)OCc1ccccc1)c1cnc(-c2ccccc2)[nH]1,My 235/80,7 d,62.5 µM
O=C(Nc1ccc(Br)cc1)c1ccc(Br)cc1OS(=O)(=O)c1ccccc1,6509/96,7 d,4 µM
O=C(Oc1cc(Cl)ccc1C(=O)Nc1ccc(Br)cc1)c1cnccn1,6509/96,14 d,2 µM
CC(C)C[C@H](NC(=O)OCc1ccccc1)c1cnc(-c2ccccc2)[nH]1,My 6509/96,21 d,>250 µM
O=C(Oc1cc(Cl)ccc1C(=O)Nc1cccc(Br)c1)c1cnccn1,6509/96,21 d,4 µM
O=C(Nc1ccc(F)cc1)c1cc(Cl)ccc1OS(=O)(=O)c1ccccc1,6509/96,14 d,16 µM
O=C(NC1CCCCC1)N(C(=O)c1cnccn1)C1CCCCC1,235/80,14 d,>500 µM
O=c1oc2ccc(F)cc2c(=S)n1-c1cccc(Cl)c1,6509/96,21 d,1 µM
O=C(Oc1ccc(Cl)cc1)c1cnccn1,6509/96,7 d,250 µM
O=C(Nc1ccc(C(F)(F)F)cc1)c1ccc(Cl)cc1OS(=O)(=O)c1ccccc1,6509/96,14 d,4 µM
CC[C@@H](C)[C@H](NC(=O)OCc1ccccc1)c1cnc(-c2ccc([N+](=O)[O-])cc2)[nH]1,My 6509/96,14 d,16 µM
Cc1ccc2oc(=S)n(-c3cccc(Cl)c3)c(=S)c2c1,6509/96,21 d,4 µM
NNC(=O)c1ccncc1,6509/96,14 d,4 µM